A mixed list of measured activities; the numbers were collected in NIAID ChemDB.

Shared fields: tests on isolated targets

Percent inhibition refers to the dose given; in toxicity tests it is the harm to the cells. An empty or dashed field is not shown. Neighbouring rows are from separate reports. ICn is the concentration giving n% inhibition.

SMILES	endpoint	protein	dose	changes	read by	strain	agent	value
CCOC(=O)CCCN1C(=O)c2ccccc2C(C(=O)c2ccccc2)C1=O	IC50	Protease				Serotype 14	Rhinovirus	55.4 µM
CC(=O)c1ccc(-c2cncc(N3CCN(c4cccc(Cl)c4)CC3)n2)cc1	inhibition	UL97 kinase	1 µM				Cytomegalovirus	<50%
Nc1nc(N)c2nc(Cc3cccc(C(F)(F)F)c3)c(Cc3cccc(C(F)(F)F)c3)nc2n1	IC50	Dihydrofolate reductase				TYPE 1	Cryptosporidium parvum	>10 µM
CSCCCN1C(=O)c2ccccc2C(C(=O)c2ccccc2)C1=O	IC50	Protease				Serotype 14	Rhinovirus	130.6 µM
O=C(/C=C/c1ccccc1)Nc1nnc(NCCCCc2ccccc2)s1	IC50	Polymerase					Human cytomegalovirus	<25 µM
O=C(CCn1ncc2c(=O)oc3ccccc3c21)Nc1cccc(Cl)c1	IC50	Inosine monophosphate dehydrogenase			absorbance		Cryptosporidium parvum	>5 µM
CS(=O)(=O)CCCN1C(=O)c2ccccc2C(CC(=O)c2ccccc2)C1=O	IC50	Protease				Serotype 2	Rhinovirus	3.1 µM
O=C(O)c1cnn2c(-c3ccc(Cl)cc3)c(-c3ccccc3)cnc12	IC50	RNA-dependent RNA polymerase					Hepatitis C virus	>10 µM
CCCCCCCCCCCCN1C(=O)N(c2cccc(C(C)=O)c2)C(=O)C[C@H]1C1OC2OC(C)(C)OC2[C@H]1Oc1ccccc1	inhibition	Alpha-glucosidase	100 µM				Mycobacterium aurum	28.5%
COc1cccc(C(=O)O/N=C(\N)c2ccc(Cl)cc2Cl)c1	IC50	Polymerase			scintillation proximity / radiometric		Human cytomegalovirus	7.7 µM
CCc1c(Cl)nc(N)nc1Nc1ccc(Br)cc1	IC50	Dihydrofolate reductase				TYPE II	Cryptosporidium parvum	>10 µM
O=C(CCn1ncc2c(=O)oc3ccccc3c21)Nc1ccccc1	IC50	Inosine monophosphate dehydrogenase			absorbance		Cryptosporidium parvum	5 µM
CC(C)C(=O)N[C@H]1C([C@H](C)[C@@H](O)CO)OC(C(=O)O)=C[C@@H]1N=[N+]=[N-]	IC50	Neuraminidase				TYPE 2	Parainfluenza virus	1.6 µM
N/C(=N/OC(=O)c1cccc2ccccc12)c1cccc(Cl)c1	IC50	Polymerase			scintillation proximity / radiometric		Human cytomegalovirus	>100 µM
O=C(N[C@@H](Cc1ccccc1)C(=O)O)c1cnn2c(C3CCCCC3)c(-c3ccc(OCc4ccccc4)cc3)cnc12	IC50	RNA-dependent RNA polymerase					Hepatitis C virus	<1 µM
COc1ccc(-c2cncc(N3CCN(c4ccc(F)cc4)CC3)n2)cc1OC	IC50	UL97 kinase					Cytomegalovirus	<10 µM
CCOc1ccc2ccccc2c1C(=O)Nc1nnc(NCCc2ccc(S(N)(=O)=O)cc2)s1	IC50	Polymerase					Human cytomegalovirus	>25 µM
N/C(=N\OC(=O)c1cc(Cl)ccc1Cl)c1ccc(Cl)cc1Cl	IC50	Polymerase			scintillation proximity / radiometric		Human cytomegalovirus	6.7 µM
CCCCCCCCCCCCCCCCN1C(=O)N(c2ccccc2)C(=O)C[C@H]1C1OC2OC(C)(C)OC2[C@H]1OC	inhibition	Alpha-glucosidase	100 µM				Mycobacterium aurum	5%
COc1ccccc1-c1cc(-c2ccccc2Cl)n2nc(C(=O)O)cc2n1	IC50	RNA-dependent RNA polymerase					Hepatitis C virus	>10 µM
NNC(=O)c1ccncc1	inhibition	Isocitrate lyase	1000 µM			H37Rv	Mycobacterium tuberculosis	50%
CCCCCCCCCCCCN1C(=O)N(c2ccc(Cl)cc2)C(=O)C[C@H]1C1OC2OC(C)(C)OC2[C@H]1Oc1ccccc1	inhibition	Alpha-glucosidase	100 µM				Mycobacterium aurum	41.4%
CN1C(=O)c2ccccc2C(CC(=O)c2ccc(F)cc2)C1=O	IC50	Protease				Serotype 14	Rhinovirus	41.1 µM
Nc1ncc(CNc2ccc(C(=O)N[C@@H](CCC(=O)O)C(=O)O)cc2)c(N)n1	IC50	Dihydrofolate reductase				TYPE II	Cryptosporidium parvum	0.1 µM
CC(C)(C)OC(=O)CCNc1nnc(NC(=O)c2ccc3c(c2)C(=O)OC3=O)s1	IC50	Polymerase					Human cytomegalovirus	>25 µM
N/C(=N/OC(=O)c1cccc2ccccc12)c1ccc(Br)cc1Cl	IC50	Polymerase			scintillation proximity / radiometric		Human cytomegalovirus	2.6 µM
Cc1ccccc1CC1CCc2nc(N)nc(N)c2C1	IC50	Dihydrofolate reductase				TYPE 1	Cryptosporidium parvum	0.15 µM
Fc1cccc(-c2cncc(N3CCN(c4ccc(F)cc4F)CC3)n2)c1	IC50	UL97 kinase					Cytomegalovirus	<100 µM
CC1c2nc(N)nc(N)c2CN1C(=O)c1ccccc1	IC50	Dihydrofolate reductase				TYPE II	Cryptosporidium parvum	>100 µM
Cc1ccc(C(=O)Nc2nnc(NCCc3ccccc3)s2)cc1	IC50	Polymerase					Human cytomegalovirus	>25 µM
Cc1cc(Br)ccc1/C(N)=N\OC(=O)c1cccc2ccccc12	IC50	Polymerase			scintillation proximity / radiometric		Human cytomegalovirus	4.2 µM
COC(=O)CCC(=O)Nc1cnn2c(C3CCCCC3)c(-c3ccc(OCc4ccccc4)cc3)cnc12	IC50	RNA-dependent RNA polymerase					Hepatitis C virus	>10 µM
O=C(Nc1nnc(NCc2ccc3c(c2)OCO3)s1)c1cc2ccccc2s1	IC50	Polymerase					Human cytomegalovirus	>25 µM
CN(Cc1ccc2nc(N)nc(N)c2n1)c1ccc(C(=O)NC2CCCCC2)cc1	IC50	Dihydrofolate reductase				TYPE 1	Cryptosporidium parvum	4.7 µM
O=C(Nc1cnn2c(C3CCCCC3)c(-c3ccc(OCc4ccccc4)cc3)cnc12)C1CC1	IC50	RNA-dependent RNA polymerase					Hepatitis C virus	>10 µM
CC(=O)c1ccccc1-c1cncc(N2CCN(c3ccncc3)CC2)n1	IC50	UL97 kinase					Cytomegalovirus	<100 µM
Nc1nc2c(ncn2[C@H]2CC[C@@H](COP(=O)(O)OP(=O)(O)OP(=O)(O)O)O2)c(=O)[nH]1	IC50	Reverse transcriptase		RT-K263V	nucleotide incorporation		HIV	0.06 µM
O=C(O)c1cc2nc(-c3ccccc3)cc(-c3cccc(F)c3)n2n1	IC50	RNA-dependent RNA polymerase					Hepatitis C virus	>10 µM
O=C(O)CP(=O)(O)O	inhibition	DNA polymerase	2.5 µg/mL				Epstein-Barr virus	51.5%
OCC1CCCN1c1nccnc1-c1cc2ccccc2o1	inhibition	UL97 kinase	1 µM				Cytomegalovirus	<50%
Cc1ccc(/C(N)=N\OC(=O)c2cccc3ccccc23)c(C)c1	IC50	Polymerase			scintillation proximity / radiometric		Human cytomegalovirus	20.4 µM
Nc1nc(-c2ccccc2)c(CCCNc2ccc(C(=O)NC(CCC(=O)O)C(=O)O)cc2)c(=O)[nH]1	IC50	Dihydrofolate reductase				TYPE I	Cryptosporidium parvum	>100 µM
Nc1nc(=O)c2ncn(COCCO)c2c(=O)[nH]1	IC50	NTPase/helicase			helicase activity		West Nile virus	>500 µM
Oc1cc(O)c2c(c1)O[C@H](c1cc(O)c(O)c(O)c1)[C@@H](O)C2	IC50	DNA polymerase					Epstein-Barr virus	8.1 µg/mL
Cc1ccc(/C(N)=N\OC(=O)c2cccc3ccccc23)cc1	IC50	Polymerase			scintillation proximity / radiometric		Human cytomegalovirus	100 µM
COc1cc(NCc2cccc3nc(N)nc(N)c23)c(Br)c(OC)c1OC	IC50	Dihydrofolate reductase				TYPE 2	Cryptosporidium parvum	>10 µM
O=C(/C=C/c1ccccc1Cl)Nc1nnc(NCCSc2ccccc2)s1	IC50	Polymerase					Human cytomegalovirus	>25 µM
Fc1ccc(-c2cncc(N3CCN(c4cccc(C(F)(F)F)c4)CC3)n2)cc1Cl	inhibition	UL97 kinase	10 µM				Cytomegalovirus	>15%
CC(C)c1cc(C(C)C)c(C(=O)Nc2nnc(NCCCNC3CCCCC3)s2)c(C(C)C)c1	IC50	Polymerase					Human cytomegalovirus	>25 µM
COc1cccc2c1CCc1nc(N)nc(N)c1-2	IC50	Dihydrofolate reductase				TYPE 2	Cryptosporidium parvum	0.72 µM
Nc1nc(N)c(-c2ccc(Cl)cc2)c(/C=C/c2ccc([N+](=O)[O-])cc2)n1	IC50	Dihydrofolate reductase				TYPE II	Cryptosporidium parvum	30 µM
CC(=O)Nc1ccc(C(=O)O)cc1	inhibition	DHPS	100 µM				Pneumocystis carinii	44.8%
CCOC(=O)C[C@H](NC(=O)Nc1ccc(Cl)cc1)C1O[C@@H]2OC(C)(C)O[C@@H]2[C@H]1Oc1ccccc1	inhibition	Alpha-glucosidase	100 µM				Mycobacterium aurum	97.2%
c1ccc2c(-c3cncc(N4CCN(c5ccncc5)CC4)n3)csc2c1	IC50	UL97 kinase					Cytomegalovirus	<10 µM
O=C(O)c1cc2nc(-c3ccccc3)cc(-c3ccc(Cl)cc3Cl)n2n1	IC50	RNA-dependent RNA polymerase					Hepatitis C virus	>10 µM
N/C(=N\OC(=O)c1cc2ccccc2s1)c1ccc(Cl)cc1Cl	IC50	Polymerase			scintillation proximity / radiometric		Human cytomegalovirus	72 µM

A second listing of 6 rows from above:

SMILES	endpoint	protein	dose	changes	read by	strain	agent	value
CN1C(=O)c2ccccc2C(CC(=O)c2ccc(F)cc2)C1=O	IC50	Protease				Serotype 14	Rhinovirus	41.1 µM
O=C(O)c1cc2nc(-c3ccccc3)cc(-c3cccc(F)c3)n2n1	IC50	RNA-dependent RNA polymerase					Hepatitis C virus	>10 µM
Cc1ccc(/C(N)=N\OC(=O)c2cccc3ccccc23)cc1	IC50	Polymerase			scintillation proximity / radiometric		Human cytomegalovirus	100 µM
Nc1nc2c(ncn2[C@H]2CC[C@@H](COP(=O)(O)OP(=O)(O)OP(=O)(O)O)O2)c(=O)[nH]1	IC50	Reverse transcriptase		RT-K263V	nucleotide incorporation		HIV	0.06 µM
O=C(O)c1cnn2c(-c3ccc(Cl)cc3)c(-c3ccccc3)cnc12	IC50	RNA-dependent RNA polymerase					Hepatitis C virus	>10 µM
CCCCCCCCCCCCCCCCN1C(=O)N(c2ccccc2)C(=O)C[C@H]1C1OC2OC(C)(C)OC2[C@H]1OC	inhibition	Alpha-glucosidase	100 µM				Mycobacterium aurum	5%